Data as given in PubChem BioAssay AID504761 (Drosophila RNAi Screening Center, 2011).
In all, the deposit lists about 22,000 reagents; below is a random part of those with a known target gene and a result. Of all reagents, 116 (0.52%) were called active. 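Calls depend on retest data that are not deposited; infection was ranked per plate without normalising between plates; the unit of the infection score is not given.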 Raw values are not corrected between plates. Not all columns of the deposit are shown. The record does not give: the amount of reagent, the time to read-out.

Purpose: 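Genome-wide fly cell screen for genes dengue virus requires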 (primary screen)
Cell system: D.Mel-2 cells from Drosophila
Knock-down reagent: long dsRNA against Drosophila genes
Challenge: infection with dengue virus type 2; dose and infection time not stated
Measurement: 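Cells stained for dengue envelope protein and imaged; percent of infected cells per well on duplicate plates, ranked by infection, with stained nuclei counted for cell number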
Reading the numbers: infection score: higher = more virus-infected cells; cell count: higher = more cells in the well
Hit rule: 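Very low infection ranking in both replicate wells (chance probability at most 0.065), then a retest showing infection dropped 1.5-fold or more at p below 0.05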
Meaning of the calls: active = confirmed: knock-down lowers infection; inactive = not picked or not confirmed

Usp20-33 (GeneID 36580) [DRSC07196] | infection score, replicate 1 = 3.17; cell count, replicate 1 = 5842; activity call = inactive
CG7394 (GeneID 39294) [DRSC10835] | infection score, replicate 1 = 9.3; cell count, replicate 1 = 5451; activity call = inactive
Snx21 (GeneID 33466) [DRSC00564] | infection score, replicate 1 = 6.09; cell count, replicate 1 = 6093; activity call = inactive
Snx21 (GeneID 33466) [DRSC28493] | infection score, replicate 1 = 10.9; cell count, replicate 1 = 2562; activity call = inactive
Dhpr (GeneID 39050) [DRSC11135] | infection score, replicate 1 = 1.45; cell count, replicate 1 = 5712; activity call = inactive
CG12003 (GeneID 38183) [DRSC08214] | infection score, replicate 1 = 6.43; cell count, replicate 1 = 5991; activity call = inactive
Chd3 (GeneID 40111) [DRSC11114] | infection score, replicate 1 = 3.84; cell count, replicate 1 = 6458; activity call = inactive
Chd3 (GeneID 40111) [DRSC23701] | infection score, replicate 1 = 6.65; cell count, replicate 1 = 5611; activity call = inactive
Galphaf (GeneID 39861) [DRSC11171] | infection score, replicate 1 = 0.86; cell count, replicate 1 = 6376; activity call = inactive
CtIP (GeneID 40262) [DRSC11785] | infection score, replicate 1 = 3.07; cell count, replicate 1 = 6019; activity call = inactive
CtIP (GeneID 40262) [DRSC29281] | infection score, replicate 1 = 16.3; cell count, replicate 1 = 6643; activity call = inactive
Ccp84Ac (GeneID 40823) [DRSC12588] | infection score, replicate 1 = 7.7; cell count, replicate 1 = 5951; activity call = inactive
Ccp84Ac (GeneID 40823) [DRSC25631] | infection score, replicate 1 = 5.41; cell count, replicate 1 = 6538; activity call = inactive
CG31343 (GeneID 326133) [DRSC15887] | infection score, replicate 1 = 1.68; cell count, replicate 1 = 6845; activity call = inactive
CG1847 (GeneID 32144) [DRSC19810] | infection score, replicate 1 = 2.69; cell count, replicate 1 = 6540; activity call = inactive
CG17026 (GeneID 39739) [DRSC10237] | infection score, replicate 1 = 3.53; cell count, replicate 1 = 5729; activity call = inactive
CG17026 (GeneID 39739) [DRSC24059] | infection score, replicate 1 = 5.59; cell count, replicate 1 = 6210; activity call = inactive
CG43317 (GeneID 41916) [DRSC15000] | infection score, replicate 1 = 10.7; cell count, replicate 1 = 4374; activity call = inactive
stet (GeneID 38169) [DRSC08246] | infection score, replicate 1 = 2.42; cell count, replicate 1 = 6239; activity call = inactive
stet (GeneID 38169) [DRSC08283] | infection score, replicate 1 = 2; cell count, replicate 1 = 5957; activity call = inactive
tgo (GeneID 41084) [DRSC17077] | infection score, replicate 1 = 2.71; cell count, replicate 1 = 5687; activity call = inactive
tgo (GeneID 41084) [DRSC29930] | cell count, replicate 1 = 300; activity call = inactive
